Experimental data published in publication PMC5840251.

Target: mouse cellular prion protein (PrP^C), full-length, on transfected HEK293 cells (mouse) (UniProt P04925)
Assay: immunostaining of cells or tissue

Substance “recombinant mouse α-synuclein sonicated fibrils (from UniProt O55042 1-140) (natural protein; other documents disagree on this pair)” has a percent of PrP^C-labelled cells that were α-synuclein-positive of 91.1%.
